Pooled drug test results. Numbers come from NIAID ChemDB, via PubChem.

All rows: growth or infection tests; species: Hepatitis C virus; cells: Huh7; read-out: EC50

ECn is the concentration giving n% inhibition of infection, replication or growth. Lines come from different laboratories, so protocols vary. An empty or dashed field is not shown. Two numbers with a dash give a range or band.

SMILES,strain or isolate,method,conditions,result
CC1=C(C(=O)OCCCSc2nc3ccccc3o2)C(CF)NC(=S)N1,-,ELISA,-,1–10 µM
CNC(=O)c1c(-c2ccc(F)cc2)oc2cc(N(C(C)=O)S(C)(=O)=O)c(OC)cc12,-,replicon,-,<1 µM
Nc1ncc(-c2nc3ccccc3s2)c(N[C@@H]2C[C@H](CO)[C@@H](O)[C@H]2O)n1,1b,replicon,-,0.13 µM
COc1ccc(-c2nc(NC(=O)[C@@H](C)c3ccc(Cl)cc3)[nH]c2C)cc1S(C)(=O)=O,1b,luciferase,-,0.056 µM
Nc1ncnc2c1c(I)nn2[C@@H]1C=C(CO)[C@@H](O)[C@H]1O,-,luciferase,-,6.6 µM
Cc1cccc(/C(N)=N/OC(=O)N2CCOCC2)c1,-,replicon,-,3.32 µM
O=C(Cc1cc(C(F)(F)F)cc(C(F)(F)F)c1)N/N=C/c1ccccc1OS(=O)(=O)c1ccc(C(F)(F)F)cc1,-,replicon,-,<5 µM
C=CC1CC1(NC(=O)[C@@H]1C[C@@H](OC(=O)N2CCc3ccccc3C2)CN1C(=O)[C@@H](NCC1CC1)C(C)(C)C)C(=O)NS(=O)(=O)C1CC1,1b,replicon,-,1–10 µM
COc1nc(N)nc2c1ncn2[C@@H]1O[C@H](COP(=O)(N[C@@H](C)C(=O)OCC(C)(C)C)Oc2cccc3ccccc23)[C@@H](O)[C@@]1(C)O,2a,luciferase,24 h,0.0009 µM
C=C[C@@H]1C[C@]1(NC(=O)[C@@H]1C[C@@H]2CN1C(=O)[C@H](C(C)(C)C)NC(=O)C[C@@H]1C[C@H]1CCCCCc1nc3ccc(OC)cc3nc1O2)C(=O)NS(=O)(=O)C1CC1,S52,PCR,-,0.000035 µM
COc1ccc2c(O[C@@H]3C[C@H]4C(=O)N[C@]5(C(=O)O)C[C@H]5/C=C\CCCCC[C@H](NC(=O)OC5CCCC5)C(=O)N4C3)cc(-c3csc(NC(C)C)n3)nc2c1,Mutant strain,replicon,-,1–1.8 µM
CC(C)[C@H](NC(=O)N[C@H](C(=O)N1CC[C@H]2[C@H]1C(C1CCC1)C(=O)N2C(=O)C1CC1)C(C)C)C(=O)N1CCN(c2ncccn2)CC1,-,ELISA,-,0.45 µM
O=C(Cn1nnc2cc3cccnc3c(Cl)c21)Cn1nnc2cc3cccnc3c(Cl)c21,1b,MTT,-,>100 µM
C=CC1CC1(NC(=O)[C@@H]1C[C@@H](OC(=O)Nc2cc(C)ccc2-c2nccs2)CN1C(=O)[C@@H](NC(=O)OC(C)(C)C)C(C)(C)C)C(=O)NS(=O)(=O)C1CC1,1b,replicon,-,<0.1 µM
O=C(N/N=C/c1ccccc1OS(=O)(=O)c1ccc(C(F)(F)F)cc1)c1ccccc1[N+](=O)[O-],-,replicon,-,<5 µM
Oc1ccc(C23CCCC2C2(CCCC2)c2ccc(O)cc2O3)c(O)c1,-,replicon,-,4.81 µM
Nc1ncnc2c1c(-c1ccc(-c3cc(-c4ccccn4)nc(-c4ccccn4)c3)cc1)cn2[C@H]1C[C@H](O)[C@@H](CO)O1,1b,replicon,genotype 1b,0.15 µM
COc1ccc(-c2nc(NC(=O)[C@@H](C)c3ccc(Cl)cc3)[nH]c2C)cc1S(=O)(=O)CCO,JFH-1,luciferase,-,0.184 µM
C=CC1CC1(NC(=O)[C@@H]1C[C@@H](OC(=O)Nc2ccccc2[N+](=O)[O-])CN1C(=O)[C@@H](NC(=O)OC(C)(C)C)C(C)(C)C)C(=O)NS(=O)(=O)C1CC1,1b,replicon,-,0.1–1 µM
COc1ccc(Cn2c(Br)nc3c(=O)nc(NCc4ccccc4)[nH]c(=O)c32)cc1,-,replicon,-,<10 µM
CNC(=O)c1c(-c2ccc(F)cc2)oc2cc(N(CCOC)S(C)(=O)=O)c(OC(C)C)cc12,-,replicon,-,<1 µM
CCC[C@H](NC(=O)[C@@H]1[C@H]2CCC[C@H]2CN1C(=O)[C@@H](NC(=O)[C@@H](NC(=O)c1cnccn1)C1CCCCC1)C(C)(C)C)C(=O)C(=O)NC1CC1,-,replicon,-,0.33 µM
N#Cc1c(Nc2ccc(C(F)(F)F)cc2)s[nH]c1=O,-,replicon,-,1–10 µM
COc1cccc(CC(=O)N/N=C/c2ccncc2OS(=O)(=O)c2ccc(C(F)(F)F)cc2)c1,-,replicon,-,<5 µM
C=CC1C[C@]1(NC(=O)C1C[C@@H](Oc2cc(-c3ccccc3)nc3ccccc23)CN1C(=O)[C@@H](NC(=O)[C@@H](NC(=O)[C@@H](CCC(=O)O)NC(=O)[C@H](CC(=O)O)NC(C)=O)C1CCCCC1)C(C)(C)C)C(=O)O,-,replicon,-,1.9 µM
CCc1cc2c(C(=O)NC)c(-c3ccc(F)cc3)oc2cc1N(CCO)S(C)(=O)=O,-,replicon,-,<1 µM
N/C(=N\OC(=O)N1CCOCC1)c1ccccc1,-,replicon,-,8.62 µM
CCCCCCCCCCCCCCNc1nc(=O)c2nc(Br)n(Cc3ccc(OC)cc3)c2c(=O)[nH]1,-,replicon,-,<10 µM
CNC(=O)c1c(-c2ccc(F)cc2)oc2cc(-c3n[nH]c(C)n3)c(OC)cc12,-,replicon,-,<10 µM
C=C(Cl)COC(=O)C1=C(C)NC(=S)NC1,-,ELISA,-,<1 µM
C=CC1CC1(NC(=O)[C@@H]1C[C@@H](OC(=O)Nc2ccc(OC)cc2[N+](=O)[O-])CN1C(=O)[C@@H](NC(=O)OC(C)(C)C)C(C)(C)C)C(=O)NS(=O)(=O)C1CC1,1b,replicon,-,1–10 µM
Nc1ncnc2c1c(Cl)nn2[C@@H]1C=C(CO)[C@@H](O)[C@H]1O,-,luciferase,-,87.6 µM
CNC(=O)c1c(-c2ccc(F)cc2)oc2cc(NC)c(OC(C)C)cc12,-,replicon,-,<1 µM
COc1ccc(-c2nc(NC(=O)C(C)c3ccccc3)[nH]c2C)cc1S(C)(=O)=O,1b,luciferase,-,0.132 µM
N#Cc1c(Nc2ccnc(Cl)c2)s[nH]c1=O,-,replicon,-,10–50 µM
COc1ccc2c(O[C@@H]3C[C@H]4C(=O)N[C@]5(C(=O)O)C[C@H]5/C=C\CCCCC[C@H](NC(=O)OC5CCCC5)C(=O)N4C3)cc(-c3csc(NC(C)C)n3)nc2c1,genotype 1b,replicon,-,0.003 µM
Nc1ncnc2c1c(C#Cc1cccc(-c3ccccn3)n1)cn2[C@H]1C[C@H](O)[C@@H](CO)O1,1b,replicon,genotype 1b,13 µM
COc1cccc(CC(=O)N/N=C/c2cc(Cl)cc(OC)c2OS(=O)(=O)c2ccc(C(F)(F)F)cc2)c1,-,replicon,-,<5 µM
N#Cc1c(Nc2ccc(C(=O)c3ccccc3)cc2)s[nH]c1=O,-,replicon,-,10–50 µM
COc1ccc2c(O[C@@H]3C[C@H]4C(=O)N[C@]5(C(=O)NS(=O)(=O)C6CC6)C[C@@]5(F)/C=C\CCCCN(C)C(=O)[C@@H]4C3)cc(-c3nc(C(C)C)cs3)nc2c1C,-,luciferase,genotype 1b,15 µM
COc1cccc(Nc2s[nH]c(=O)c2C#N)c1,-,replicon,-,>50 µM
C=C[C@@H]1C[C@]1(NC(=O)C1C[C@@H](Oc2cc(-c3csc(NC4CCCC4)n3)nc3cc(OC)ccc23)CN1C(=O)[C@@H](NC(=O)OC1CCCC1)C(C)(C)C)C(=O)O,-,-,-,<0.5 µM
N#Cc1c(Nc2cc(Br)cc(C(F)(F)F)c2)s[nH]c1=O,-,replicon,-,<1 µM
CCc1nc(N(C)C)nc(N[C@@H]2C[C@H](CO)[C@@H](O)[C@H]2O)c1-c1nc2ccccc2s1,1b,replicon,-,0.14 µM
CCNc1nc(=O)c2nc(Br)n(Cc3ccc(OC)cc3)c2c(=O)[nH]1,-,replicon,-,>10 µM
O=C(Cc1ccc(I)cc1)N/N=C/c1ccccc1OS(=O)(=O)c1ccc(C(F)(F)F)cc1,-,replicon,-,<5 µM
CNC(=O)c1c(-c2ccc(Cl)s2)oc2ccc(OC)cc12,-,replicon,-,<10 µM
C=CC1CC1(NC(=O)[C@@H]1C[C@@H](OC(=O)Nc2ncccc2C(=O)OCC)CN1C(=O)[C@@H](NC(=O)OC(C)(C)C)C(C)(C)C)C(=O)NS(=O)(=O)C1CC1,1b,replicon,-,1–10 µM
COc1ccc(/C(N)=N/OC(=O)N2CCOCC2)cc1OC,-,replicon,-,3.8 µM
COC(=O)N[C@H](C(=O)N1CCC[C@H]1c1ncc(-c2ccc(-c3ccc(-c4cnc([C@@H]5CCCN5C(=O)[C@@H](NC(=O)OC)C(C)C)[nH]4)cc3)cc2)[nH]1)C(C)C,GT2a,luciferase / replicon,-,0.00015 µM
CNC(=O)c1c(-c2ccc(F)cc2)oc2cc(N3CCCS3(=O)=O)c(OC(C)C)cc12,-,replicon,-,<10 µM
CC1=C(C(=O)OCn2nnc3ccccc32)CNC(=S)N1,-,ELISA,-,<1 µM
CNC(=O)c1c(-c2ccc(F)cc2)oc2cc(N(C)CCOC)c(OC(C)C)cc12,-,replicon,-,<1 µM
C=CC1CC1(NC(=O)[C@@H]1C[C@@H](OC(=O)Nc2ccccc2-n2cccc2)CN1C(=O)[C@@H](NC(=O)OC(C)(C)C)C(C)(C)C)C(=O)NS(=O)(=O)C1CC1,1b,replicon,-,0.1–1 µM
Nc1ncnc2c1ncn2[C@@H]1O[C@H](CO)[C@@H](O)[C@H]1CO,1a,luciferase,-,>88 µM
C=CC1CC1(NC(=O)[C@@H]1C[C@@H](OC(=O)N(C)c2ccccc2)CN1C(=O)[C@@H](NC(=O)OC(C)(C)C)C(C)(C)C)C(=O)NS(=O)(=O)C1CC1,1b,replicon,-,1–10 µM
CC(C)OP1(=O)CC(n2ccc(N)nc2=O)O[C@@H]1COCc1ccccc1,ZS11 (gt 1b),luciferase / replicon,-,>10 µM
N#Cc1c(Nc2ccc(Cl)cn2)s[nH]c1=O,-,replicon,-,10–50 µM
CC1=CC[C@H](C(=O)N(c2cc(C#CC(C)(C)C)sc2C(=O)O)C2CCC(O)(CO[C@H]3CCOC3)CC2)CC1,H77 (GT1a),luciferase,-,0.009 µM
CNC(=O)c1c(-c2ccoc2)oc2ccc(OC)cc12,-,replicon,-,<30 µM
C=C[C@@H]1C[C@]1(NC(=O)C1C[C@@H](Oc2cc(-c3csc(NC4CCCC4)n3)nc3cc(OC)ccc23)CN1C(=O)[C@@H](NC(=O)OC1CCCC1)C1CCCCC1)C(=O)O,-,-,-,<0.5 µM